The results in this text go back to PMC8428568, “Discovery of re-purposed drugs that slow SARS-CoV-2 replication in human cells” (PLoS Pathogens, 2021).

Test [1] concerns SARS-CoV-2-ΔOrf7a-NLuc virus. It counts as cell-based.
Test [2] deals with SARS-CoV-2-ΔOrf7a-NLuc virus. The test is classed as cell-based. The source holds these as a separate data set.

Turning to “IFNA2: interferon alpha 2, previously demonstrated to reduce virus replication”, in test [1], the “effect on replication of SARS-CoV-2-ΔOrf7a-NLuc” value is “reduce replication of SARS-CoV-2-ΔOrf7a-NLuc in a dose dependent manner”. Moreover, the “effect on virus replication” value in test [2] is on record as “little effect on virus replication”.
